PubChem BioAssay AID1224833 – University of Georgia | 2016

Assay: 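Host factors restraining rotavirus as candidate antiviral genes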 (primary screen)
System: monkey MA104 kidney cells
Knock-down reagent: siRNA pool against human genes, 50 nM
Time to read-out: 48 h knock-down before infection; read 24 h after infection
Challenge: infection with rotavirus strain RV3 two days after transfection; infectious dose for this stage not given
Detection: 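Rotavirus antigen per well by fluorescent immunoassay, normalised to non-targeting control wells on each plate and given as a standard z-score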
Direction: z-score vs non-targeting control: higher = more rotavirus replication than with non-targeting control
Call rule: In these data the active calls have z-score vs non-targeting control at about -1 or lower, or at about 1 or higher
Calls: active = z-score beyond 1 either way; inactive = z-score within 1 of zero
The deposit covers about 12,000 reagents; shown is a random part of them. Of all reagents, about 5,600 (46%) are marked active. 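Active calls cover z-scores past 1 in both directions, so they include lowered as well as raised rotavirus replication.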

| Target gene | z-score vs non-targeting control | activity call |
| --- | --- | --- |
| GARIN1B | -1.16 | active |
| MT3 | 0.376 | inactive |
| ERG | -1.66 | active |
| AP2M1 | 0.744 | inactive |
| SCFD1 | -0.713 | inactive |
| SOX7 | -0.0195 | inactive |
| U2AF1 | -1.2 | active |
| SLC2A5 | -1.1 | active |
| SLC25A24 | -1.65 | active |
| NYAP1 | -0.892 | inactive |
| ZNF75D | -1.05 | active |
| TBC1D31 | -0.387 | inactive |
| HLF | 2.26 | active |
| DAAM2 | 0.442 | inactive |
| DYNLT5 | -0.567 | inactive |
| PMCH | 0.0809 | inactive |
| STX5 | -0.959 | inactive |
| AEBP2 | -0.738 | inactive |
| CCHCR1 | 0.0115 | inactive |
| FKTN | 0.76 | inactive |
| ITPRIPL1 | 0.517 | inactive |
| REPIN1 | -1.65 | active |
| TEF | -2.3 | active |
| MSH2 | -1.46 | active |
| CFAP161 | -0.609 | inactive |
| SPATA31D1 | -1.91 | active |
| PRPF31 | -1.39 | active |
| ZPR1 | -0.134 | inactive |
| TADA1 | 0.545 | inactive |
| KLF7 | 1.05 | active |
| ANAPC13 | 0.507 | inactive |
| RALGDS | -0.284 | inactive |
| SOD2 | 0.898 | inactive |
| KCTD11 | -0.748 | inactive |
| CCZ1B | -0.97 | inactive |
| SLC6A11 | -2.3 | active |
| CHMP4C | -1.67 | active |
| PXMP4 | -1.65 | active |
| EPHX2 | 3.85 | active |
| LGALS12 | 1.2 | active |
| GAN | -0.727 | inactive |
| PLEKHA8 | 2.24 | active |
| MGAT5B | -1.64 | active |
| LGALS13 | -1.36 | active |
| GREM1 | -2.01 | active |
| NIPSNAP1 | 1.46 | active |
| OR2T3 | -2.34 | active |
| PASD1 | -2.32 | active |
| TEX28 | 0.327 | inactive |
| GEMIN2 | 0.993 | inactive |
| IKZF4 | -0.497 | inactive |
| DNAJC28 | 0.161 | inactive |
| PAQR5 | -2.1 | active |
| SCNM1 | -0.889 | inactive |
| DNAJB12 | -0.324 | inactive |
| EREG | -1.55 | active |
| VCPKMT | -0.0193 | inactive |
| NDUFA8 | -2.04 | active |
| ZNF605 | -0.146 | inactive |
| SAG | 1.51 | active |
| TUBGCP2 | -0.881 | inactive |
| ZMAT3 | -0.174 | inactive |
| GOLGA3 | -0.308 | inactive |
| GFM1 | -1.32 | active |
| ABCD3 | -1.68 | active |
| ATXN2L | -0.272 | inactive |
| GLG1 | 0.131 | inactive |
| ZMIZ1 | -1.91 | active |
| OR2T4 | -0.658 | inactive |
| TOP1MT | 2.09 | active |
| CEACAM1 | 0.466 | inactive |
| SAA2 | -0.368 | inactive |
| POMGNT2 | -0.464 | inactive |
| OR2T5 | 0.214 | inactive |
| SLC8A3 | -1.71 | active |
| SH3GLB2 | -0.322 | inactive |
| ALKBH7 | 0.0837 | inactive |
| FHOD3 | 0.07 | inactive |
| AADACL4 | -1.09 | active |
| AQP4 | 2.17 | active |
| CST6 | -0.865 | inactive |
| PLIN1 | -1.84 | active |
| EPHX1 | 0.878 | inactive |
| HADH | -0.835 | inactive |
| SOX5 | 1.06 | active |
| OAZ3 | -1.61 | active |
| SHCBP1L | 0.986 | inactive |
| SRPRA | 1.97 | active |
| H1-0 | -1.88 | active |
| GDAP1L1 | -0.514 | inactive |
| PCTP | -0.0744 | inactive |
| TOMM40L | -0.525 | inactive |
| ARID3B | 1.55 | active |
| SEC23IP | -0.292 | inactive |
| RAB43 | -1.8 | active |
| RPUSD2 | -0.815 | inactive |
| MRPS10 | -2 | active |
| KRAS | -1.53 | active |
| TUT1 | -0.79 | inactive |
| GNA14 | -0.123 | inactive |
| DOK4 | 0.0819 | inactive |
| TMEM31 | -0.159 | inactive |
| ITIH3 | -0.478 | inactive |
| C2orf69 | -2.94 | active |
| SAGE1 | -0.827 | inactive |
| ITGA11 | -0.943 | inactive |
| SLC52A1 | 0.96 | inactive |
| PBXIP1 | 0.837 | inactive |
| MAGEA1 | -0.65 | inactive |
| MAGT1 | -0.575 | inactive |

In a second layout: 13 of the entries above.
Target gene | z-score vs non-targeting control | activity call
AP2M1 | 0.744 | inactive
SCFD1 | -0.713 | inactive
SOX7 | -0.0195 | inactive
U2AF1 | -1.2 | active
SLC2A5 | -1.1 | active
SLC25A24 | -1.65 | active
NYAP1 | -0.892 | inactive
ZNF75D | -1.05 | active
TBC1D31 | -0.387 | inactive
HLF | 2.26 | active
DAAM2 | 0.442 | inactive
DYNLT5 | -0.567 | inactive
PMCH | 0.0809 | inactive
